This experiment has as its target TMPKmt (M. tuberculosis TMPK) (Mycobacterium tuberculosis, UniProt P9WKE1). The class given is biochemical. Conditions: pH 7.4.

Chains of the proteins cited; added tags and fusions are not shown. Lines headed by an entry give the natural chain unless they say otherwise; changes in a name come on top.
UniProt P9WKE1: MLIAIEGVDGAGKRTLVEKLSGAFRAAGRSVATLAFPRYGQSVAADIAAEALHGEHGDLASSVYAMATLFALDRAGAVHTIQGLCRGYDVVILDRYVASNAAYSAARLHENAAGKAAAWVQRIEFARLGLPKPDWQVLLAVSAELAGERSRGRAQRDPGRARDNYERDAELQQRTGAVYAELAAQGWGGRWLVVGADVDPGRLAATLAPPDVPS

Ki data for one substance are collected here from patent publication US20080096907A1, “Aryl, Pyrimidyl Compounds, Pharmaceutical Compositions Comprising them, Their Use as Antimicrobial Agents” (INSTITUT PASTEUR, priority 2004, published 2008).

Regarding “5-[4-(5-Methyl-2,4-dioxo-3,4-dihydro-2H-pyrimidin-1-yl-methyl)-phenyl]-penten-2-oic acid [Compound 28]”, the Ki (as a rule, the equilibrium dissociation constant of an inhibitor or competing ligand from its target) came to 48 µM.
